For at least one entry, the source does not settle the construct or the ends of the probe.

Amino acid sequences for entries named in this document (tags omitted). A change or cut given only in a name is not applied to a line headed by its entry.
UniProt Q5HCN2: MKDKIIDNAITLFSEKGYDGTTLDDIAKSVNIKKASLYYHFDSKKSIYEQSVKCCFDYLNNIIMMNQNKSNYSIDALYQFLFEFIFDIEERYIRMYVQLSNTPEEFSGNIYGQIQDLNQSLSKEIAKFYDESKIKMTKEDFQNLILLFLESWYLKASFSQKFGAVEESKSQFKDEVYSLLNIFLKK

For this data set, the target named is IcaR (FK300) (Staphylococcus aureus FK300) (UniProt Q5HCN2). Nature of the data set: EMSA. The settings on record: 0.1-2 ug protein, 1 ng probe; recombinant protein; residues 1-186; protein details: N-terminal His6 (MHHHHHH, from primer); label: 5'-biotin on the reverse primer strand; probe letters rebuilt from the primers and the genome.

As to “ATTGCGTTATCAATAATCTTATCCTTCAATTTTTATAACCCCCTACTGAAAATTAATCACACTATGTTACAGGAAAATTAAGTTGCAATTACAAATATTTCCGTTTAATTATAACAACAATCTATTGCAAATTAAAATACTATCAATTACCATATGGCTTACAACCTAACTAACGAAAGGTAGGTAAAGGAATTGCAA (double strand) [icaR-icaA intergenic region (ica promoter)]”, the binding result is recorded as “binds”.

(Values after paper PMC10100805.)
